Measured values from several laboratories, pooled; numbers as filed in NIAID ChemDB.

All rows: whole-cell or culture tests; agent: Aspergillus fumigatus; method: broth dilution; measure: MIC

Rows are shuffled and stem from different studies. Blank or dashed fields: not listed here.

C=C1CC[C@H]2C[C@@H]1C2(C)C ; strain: IP 2279.94 ; value: 6000 µg/mL
CCCCCCCCCCCCCC(=O)NC(CCCN)C(=O)NC(CCCN)C(=O)NC(CCCN)C(=O)NC(CCCN)C(N)=O ; strain: ATCC 42203 ; value: 3.1 µg/mL
Nc1scc2c1c(=O)oc1ccc3ccccc3c12 ; value: 64 µg/mL
O=C1CSC(c2cccc([N+](=O)[O-])c2)N1c1ncc(-c2cc3ccccc3oc2=O)o1 ; strain: HIC 6094 ; value: 20 µg/mL
CCC(C)n1ncn(-c2ccc(N3CCN(c4ccc(OC[C@H]5CO[C@](Cn6cncn6)(c6ccc(Cl)cc6Cl)O5)cc4)CC3)cc2)c1=O ; strain: NBRC 33022 ; setting: 48 h ; value: 2 µg/mL
Cc1nn(-c2ccccc2)c(Cl)c1C1CC(=O)N(c2ccc(F)cc2)C2=C1C(=O)CCC2 ; strain: MTCC 3008 ; value: 1000 µg/mL
C[C@@H]1[C@@H](COCC(=O)O)C[C@@H](O[C@H]2[C@H](O)[C@@H](N(Cc3ccc(O)cc3)CC(O)C[N+](C)(C)C)[C@H](O[C@H]3[C@H](O)[C@@H](N(Cc4ccc(O)cc4)CC(O)C[N+](C)(C)C)[C@H](C)O[C@@H]3COCC(=O)O)O[C@@H]2COCC(=O)O)[C@H](N(Cc2ccc(O)cc2)CC(O)C[N+](C)(C)C)[C@H]1O ; strain: RCMB 02568 ; value: 55 µg/mL
COc1cc(C2SCC(=O)N2c2ncc(-c3cc4ccccc4oc3=O)o2)ccc1O ; strain: HIC 6094 ; value: 30 µg/mL
CC(C)S(=O)(=O)N1CCN(c2cnn(-c3cc(F)cc(F)c3)c(=O)c2OC2CCC(F)C2)CC1 ; strain: ND231 ; value: 0.5 µg/mL
CCCCCCCC(=O)NC(CCCN)C(=O)NC(CCCN)C(=O)NC(CCCN)C(=O)NC(CCCN)C(=O)NC(CCCN)C(N)=O ; strain: ATCC 42203 ; value: >100 µg/mL
C[C@@H](c1ncncc1F)[C@](O)(Cn1cncn1)c1ccc(F)cc1F ; strain: EMC 1 ; value: 0.5 µg/mL
CC(=O)N1CCN(c2ccc(OC[C@H]3CO[C@](Cn4ccnc4)(c4ccc(Cl)cc4Cl)O3)cc2)CC1 ; strain: ATCC 9142 ; value: 200 µg/mL
Cc1nn(-c2ccccc2)c(Cl)c1C1CC(=O)N(c2ccc(F)cc2)C2=C1C(=O)CC(C)(C)C2 ; strain: MTCC 3008 ; value: 1000 µg/mL
CCCCCCCC(=O)NC(CCCN)C(=O)NC(CCCN)C(=O)NC(CCCN)C(=O)NC(CCCN)C(N)=O ; strain: ATCC 42203 ; value: >100 µg/mL
CN1CCN(c2n[nH]c(N3C(=O)CS[C@@H]3c3ccc4c(c3)OCO4)n2)CC1 ; strain: 119 ; value: 50 µg/mL
CCCCCCCCCC(=O)NC(CCCN)C(=O)NC(CCCN)C(=O)NC(CCCN)C(=O)NC(CCCN)C(=O)NC(CCCN)C(N)=O ; strain: ATCC 42203 ; value: 50 µg/mL
C[C@@H]1[C@@H](COCC(=O)O)C[C@@H](O[C@H]2[C@H](O)[C@@H](N(Cc3ccc(Cl)cc3)CC(O)C[N+](C)(C)C)[C@H](O[C@H]3[C@H](O)[C@@H](N(Cc4ccc(Cl)cc4)CC(O)C[N+](C)(C)C)[C@H](C)O[C@@H]3COCC(=O)O)O[C@@H]2COCC(=O)O)[C@H](N(Cc2ccc(Cl)cc2)CC(O)C[N+](C)(C)C)[C@H]1O ; strain: RCMB 02568 ; value: 30.15 µg/mL
CC(=O)c1cn([C@@H]2O[C@H]([C@H](NC(=O)[C@@H](N)[C@H](C)[C@H](O)c3ccc(O)cn3)C(=O)O)[C@@H](O)[C@H]2O)c(=O)[nH]1 ; strain: FP1305 ; value: >50 µg/mL
CCCCCCCCCCCCCCCCCC(=O)NC(CCCN)C(N)=O ; strain: ATCC 42203 ; value: >100 µg/mL
O=C1CSC(c2ccc(Cl)cc2)N1c1ncc(-c2cc3ccccc3oc2=O)o1 ; strain: HIC 6094 ; value: 36 µg/mL
COc1ccc(N2C(=O)CC(c3c(C)nn(-c4cccc(Cl)c4)c3Cl)C3=C2CC(C)(C)CC3=O)cc1 ; strain: MTCC 3008 ; value: 1000 µg/mL
NCc1c(-c2c(-c3ccc(F)cc3)[nH]c3ccccc23)c(CN)c2nc3ccccc3n2c1N ; strain: MTCC 3008 ; value: 1000 µg/mL
C[C@H]1[C@H](O)[C@@H](C)/C=C/C=C/C=C/C=C/C=C/C=C/C=C/[C@H](O[C@@H]2O[C@H](C)[C@@H](O)[C@H](N)[C@@H]2O)C[C@@H]2O[C@](O)(C[C@@H](O)C[C@@H](O)CC[C@H](O)[C@@H](O)C[C@@H](O)CC(=O)O[C@H]1C)C[C@H](O)[C@H]2C(=O)O ; strain: 20435 ; value: 0.25 µg/mL
CCCCCCCCCC(=O)NC(CCCN)C(N)=O ; strain: ATCC 42203 ; value: >100 µg/mL
CCCCCCCCCCCC[n+]1cccc2ccccc21 ; strain: 231 ; setting: 24 h ; value: 0.0625 µg/mL
COc1ccc(-c2[nH]c3ccccc3c2-c2c(CN)c(N)n3c(nc4ccccc43)c2CN)cc1 ; strain: MTCC 3008 ; value: 1000 µg/mL
CCCC[C@@H](C)/C=C(C)/C=C(\C)C(=O)N/C(=C/[C@@](C)(O)/C=C/C=C/C=C/C(=O)NC1=C(O)CCC1=O)C(=O)[C@@H]1CO1 ; strain: 1 ; value: 200 µM
COc1ccc(N2C(=O)CC(c3c(C)nn(-c4cccc(Cl)c4)c3Cl)C3=C2CCCC3=O)cc1 ; strain: MTCC 3008 ; value: 1000 µg/mL
Cc1ccc2c(c1)nc1c(CN)c(-c3c(-c4ccc([N+](=O)[O-])cc4)[nH]c4ccccc34)c(CN)c(N)n12 ; strain: MTCC 3008 ; value: 1000 µg/mL
Cc1ccc(C2SCC(=O)N2c2ncc(-c3cc4ccccc4oc3=O)o2)cc1 ; strain: HIC 6094 ; value: 30 µg/mL
Cc1ccc2c(c1)nc1c(CN)c(-c3c(-c4ccc(C#N)cc4)[nH]c4ccccc34)c(CN)c(N)n12 ; strain: MTCC 3008 ; value: 500 µg/mL
COc1ccc(CN(CC(O)C[N+](C)(C)C)[C@@H]2[C@@H](O)[C@H](O[C@@H]3O[C@H](COCC(=O)O)[C@@H](O[C@@H]4C[C@H](COCC(=O)O)[C@@H](C)[C@H](O)[C@H]4N(Cc4ccc(OC)cc4)CC(O)C[N+](C)(C)C)[C@H](O)[C@H]3N(Cc3ccc(OC)cc3)CC(O)C[N+](C)(C)C)[C@@H](COCC(=O)O)O[C@H]2C)cc1 ; strain: RCMB 02568 ; value: 100 µg/mL
O=C1CSC(c2ccc(O)cc2)N1c1ncc(-c2cc3ccccc3oc2=O)o1 ; strain: HIC 6094 ; value: 20 µg/mL
Cc1ccc2c(c1)nc1c(CN)c(-c3c(-c4ccccc4)[nH]c4ccccc34)c(CN)c(N)n12 ; strain: MTCC 3008 ; value: >1000 µg/mL
Cc1ccc(CN(CC(O)C[N+](C)(C)C)[C@@H]2[C@@H](O)[C@H](O[C@@H]3O[C@H](COCC(=O)O)[C@@H](O[C@@H]4C[C@H](COCC(=O)O)[C@@H](C)[C@H](O)[C@H]4N(Cc4ccc(C)cc4)CC(O)C[N+](C)(C)C)[C@H](O)[C@H]3N(Cc3ccc(C)cc3)CC(O)C[N+](C)(C)C)[C@@H](COCC(=O)O)O[C@H]2C)cc1 ; strain: RCMB 02568 ; value: 125 µg/mL
CCCCCCCC(=O)NC(CCCN)C(=O)NC(CCCN)C(N)=O ; strain: ATCC 42203 ; value: >100 µg/mL
NCc1c(-c2c(-c3ccc(Cl)cc3)[nH]c3ccccc23)c(CN)c2nc3ccccc3n2c1N ; strain: MTCC 3008 ; value: >1000 µg/mL

Repeating the final 4 entries:

smiles | strain | setting | value
Cc1ccc2c(c1)nc1c(CN)c(-c3c(-c4ccccc4)[nH]c4ccccc34)c(CN)c(N)n12 | MTCC 3008 |  | >1000 µg/mL
Cc1ccc(CN(CC(O)C[N+](C)(C)C)[C@@H]2[C@@H](O)[C@H](O[C@@H]3O[C@H](COCC(=O)O)[C@@H](O[C@@H]4C[C@H](COCC(=O)O)[C@@H](C)[C@H](O)[C@H]4N(Cc4ccc(C)cc4)CC(O)C[N+](C)(C)C)[C@H](O)[C@H]3N(Cc3ccc(C)cc3)CC(O)C[N+](C)(C)C)[C@@H](COCC(=O)O)O[C@H]2C)cc1 | RCMB 02568 |  | 125 µg/mL
CCCCCCCC(=O)NC(CCCN)C(=O)NC(CCCN)C(N)=O | ATCC 42203 |  | >100 µg/mL
NCc1c(-c2c(-c3ccc(Cl)cc3)[nH]c3ccccc23)c(CN)c2nc3ccccc3n2c1N | MTCC 3008 |  | >1000 µg/mL